Results of unrelated studies side by side (data: NIAID ChemDB).

Common to all: tests in culture; agent: Mycobacterium tuberculosis

ECn is the concentration giving n% inhibition of infection, replication or growth.

smiles	measure	method	conditions	dose	strain	result
O=C1C[C@@H](c2ccc(O)cc2)Oc2cc(O)c(-c3c(O)cc4c(c3O)C(=O)C[C@@H](c3ccc(O)cc3)O4)c(O)c21	EC50					>12.5 µg/mL
C=C1C(=O)O[C@@H]2C[C@@]3(C)CCC[C@]4(CO4)[C@@H]3C[C@H]12	MIC				H37Rv	32 µg/mL
CC(=O)c1cccc(NC(=O)/C=C/c2ccc([N+](=O)[O-])cc2)c1	MIC	visual reading			Clinical isolate	16 µg/mL
Cc1ccc(-c2cc(-c3ccc(Cl)cc3)nc(/N=C3\C(=O)N(CN4CCOCC4)c4ccccc43)n2)cc1	inhibition	BACTEC		6.25 µg/mL	H37Rv	86%
COc1ccc(-c2oc3cc(OC)cc(OC)c3c(=O)c2-c2c(-c3ccc(OC)cc3)oc3cc(OC)cc(OC)c3c2=O)cc1	EC50					>12.5 µg/mL
Nc1nnc2nc(C(C(=O)c3ccc(Cl)cc3Cl)c3nc4nnc(N)n4[nH]c3=O)c(=O)[nH]n12	MIC bound	BACTEC			H37Rv	>12.5 µg/mL
Cc1ccc(-c2cc(-c3ccc(Cl)cc3)nc(/N=C3\C(=O)N(CN4CCCCC4)c4ccc(Cl)cc43)n2)cc1	EC50	BACTEC			H37Rv	<6.25 µg/mL
O=[N+]([O-])c1cc2ncccc2c2ncccc12	inhibition	BACTEC		12.5 µg/mL	H37Rv	99%
O=C1C[C@@H](c2ccc(O)cc2)Oc2c1c(O)cc(O[C@@H]1O[C@H](CO)[C@@H](O)[C@H](O)[C@H]1O)c2[C@H]1C(=O)c2c(O)cc(O)cc2O[C@@H]1c1ccc(O)cc1	inhibition			12.5 µg/mL		0%
NC(=O)c1cccn1Cc1ccccc1SSc1ccccc1Cn1cccc1C(N)=O	MIC bound	BACTEC			H37Rv	>12.5 µg/mL
Clc1ccc2c(-c3ccccc3)cc(Cl)nc2n1	inhibition			12.5 µg/mL	H37Rv	4%
CCC(CO)C(=O)c1ccc(OCc2ccccc2)cc1O	EC50	fluorescence			H37Rv	0.38 µM
NNC(=O)c1ccncc1	MIC				Isolate UT2340 (katG S315T mutation)	0.38 µg/mL
Nc1ccc2c(-c3ccccc3)cc(=S)[nH]c2n1	inhibition			12.5 µg/mL	H37Rv	0%
CCCCCCCCCCCCCCCCNC(=O)C1=CCN(C)[C@@H]([C@H](O[C@@H]2O[C@H](CN)[C@@H](O)[C@H]2O)[C@H]2O[C@@H](n3ccc(=O)[nH]c3=O)[C@H](O)[C@@H]2O)C(=O)N1C	MIC				Kurono	1.56 µg/mL
C=C1C(=O)O[C@@H]2C[C@@]3(C)CCC(=O)C(C)=C3C[C@H]12	MIC				H37Rv	128 µg/mL
Cc1ccncc1-c1noc(C2=CC3(CCN(CC4CCCO4)CC3)c3ccccc32)n1	MIC	resazurin			H37Rv	6.3 µM
Cc1cc(O)c(C(=O)/C=C/c2ccccc2)c(=O)o1	MIC	visual reading			H37Rv	8 µg/mL
CCN(CC)CCNC(=O)c1ccc([N+](=O)[O-])cc1	MIC				N73	50 µg/mL
O=c1cc(-c2ccc(O)c(-c3c(O)cc(O)c4c(=O)cc(-c5ccc(O)cc5)oc34)c2)oc2cc(O)cc(O)c12	MIC					>12.5 µg/mL
C1=C(c2nc(-c3cccnc3)no2)c2ccccc2C12CCN(CC1CCCO1)CC2	MIC	resazurin			H37Rv	3.1 µM
CCOC(=O)N1CCN(c2ccc3c(-c4ccccc4)cc(N4CCN(C(=O)OCC)CC4)nc3n2)CC1	inhibition			12.5 µg/mL	H37Rv	75%
CCC(C)C1NC(=O)C(NC(=O)C(Cc2ccccc2)NC)C(c2ccccc2)Oc2ccc(cc2)C=CNC1=O	inhibition	resazurin		6.25 µg/mL	H37Rv	5%
Cc1c(N2C[C@@H]3CCCN[C@@H]3C2)c(F)cn2c(=O)c(C(=O)O)cc(C3CC3)c12	MIC				ATCC 25618	0.031 µg/mL
CC1(C)CCC[C@@]2(C)C1CC[C@@]1(C)[C@@H]3CC=C4C(=O)OCC4[C@@]3(C)[C@H](O)C[C@@H]12	EC50	BACTEC			H37Rv (ATCC 27294)	>12.5 µg/mL
CC1(C)OC(=O)ON(Cc2ccccc2)C1=O	MIC bound	BACTEC			H37Rv	>12.5 µg/mL
COc1ccc(-c2csc(/C(C#N)=C/c3ccc(O)c(OC)c3)n2)cc1	MIC	visual reading			H37Rv	8 µg/mL
O=S(=O)(NC1CCN(Cc2ccncc2)CC1)c1ccc(-n2cccn2)cc1	MIC				Clinical isolate	0.8–3.1 µM
CCOC(=O)N1CCN(c2cc(-c3ccccc3)c3ccc(Cl)nc3n2)CC1	EC50				H37Rv	<12.5 µg/mL
CC[N+](C)(CC)CCNC(=O)c1cc([N+](=O)[O-])cc([N+](=O)[O-])c1	MIC				N353	50 µg/mL
O=c1cc(-c2cccc(-c3ccc4c(=O)cc(-c5ccccc5)oc4c3)c2)oc2ccccc12	EC50					>12.5 µg/mL
O=[N+]([O-])c1cc2c(ccc3cc(Br)ccc32)o1	MIC bound	resazurin			H37Rv	>6.25 µg/mL
O=S(=O)(NC1CCN(Cc2ccncc2)CC1)c1ccc(-c2ccccc2)cc1	MIC					6.25 µM
C=C1CCC[C@]2(C)C[C@H]3OC(=O)C(C)[C@H]3C[C@@H]12	MIC				H37Rv	>128 µg/mL
Cc1c(OCC(F)(F)F)ccnc1CSc1nc2ccccc2[nH]1	MIC90	resazurin	14 d		H37Rv	1.71 µM
CNC(=S)N/N=C(\C)c1ccccn1	MIC	resazurin			H37Rv (ATCC 27294)	7.8 µg/mL
CC(C)(C)c1ccc(CN2CCC3(CC2)C(=O)N(CC2CC2)c2ccccc23)cc1	MIC	resazurin			H37Rv	0.8 µM
CC(=O)NC[C@H]1CN(c2ccc(N3C[C@H]4CC(NC(N)=S)C[C@H]4C3)c(F)c2)C(=O)O1	MIC	broth dilution / resazurin			H37Rv	0.5 µg/mL
CC[C@]1(OC(=O)CN2CCN(CCO)CC2)C(=O)OCc2c1cc1n(c2=O)Cc2cc3ccccc3nc2-1.Cl.Cl	MIC	BACTEC			H37Rv	≥12.8 µg/mL
O=S(=O)([O-])[O-].[O]=[V+2]	MIC	resazurin			H37Rv (ATCC 27294)	>50 µg/mL
Cc1ccc(-c2cc(-c3ccc(Cl)cc3)nc(/N=C3\C(=O)N(CN(C)C)c4ccccc43)n2)cc1	EC50	BACTEC			H37Rv	<6.25 µg/mL
CC(=O)/C=C(/C)[O-].CC(=O)/C=C(/C)[O-].[O]=[V+2]	MIC	resazurin			H37Rv (ATCC 27294)	>50 µg/mL
Cc1ccc(NC(=O)Oc2cc(C)c(Cl)cc2Br)cc1Cl	MIC bound	BACTEC			H37Rv	>12.5 µg/mL
COc1ccc(C/C=C/C=C/C(=O)NCC(C)C)cc1	MIC90	resazurin / absorbance			H37Rv	8 µg/mL
Cc1cccc2c1N=C(c1ccccc1)C2CN1CCC(NS(=O)(=O)C(C)C)C1	MIC					3.12 µM
O=c1ccc2c(-c3ccccc3)cc(N3CCNCC3)nc2[nH]1	EC50				H37Rv	>12.5 µg/mL
COc1ccc(-c2noc(C3=CC4(CCN(CC5CCCO5)CC4)c4ccccc43)n2)cn1	MIC	resazurin			H37Rv	0.4 µM
COCCN(C1CCN(CC2C(c3ccc(Cl)cc3)=Nc3c(C)cccc32)C1)S(C)(=O)=O	MIC					6.25 µM
C=CC[P@]1(=O)O[C@@H](c2ccccc2)[C@H](C)N1C(C)C	inhibition	BACTEC		12.5 µg/mL	H37Rv	0%
C=C1C(=O)O[C@@H]2C[C@@]3(C)C=C[C@H](O)C(=C)[C@@H]3C[C@H]12	MIC				H37Rv	32 µg/mL
Nc1ncc2c(n1)Oc1cc3nc4c(=O)nc(N)nc-4oc3cc1N2	MIC	BACTEC			H37Rv	≥12.5 µg/mL
Cc1ccc(-c2noc(C3=CC4(CCN(CC5CCCO5)CC4)c4ccccc43)n2)cn1	MIC	resazurin			H37Rv	1.6 µM
CC(C)=CCC(OC(=O)CC(C)C)C1=CC(=O)c2c(O)ccc(O)c2C1=O	MIC				RMP-R	>12.5 µg/mL
CC(=O)NC1C[C@@H]2CN(c3ccc(N4C[C@H](Cn5ccnn5)OC4=O)cc3F)C[C@@H]2C1	MIC	broth dilution / resazurin			H37Rv	1 µg/mL
Cc1ccc(-c2cc(-c3ccc(Cl)cc3)nc(/N=C3\C(=O)Nc4ccc(Br)cc43)n2)cc1	EC50	BACTEC			H37Rv	<6.25 µg/mL
Cc1ccccc1NC(=O)CC(=O)N1N=C(N2c3ccccc3Sc3ccccc32)CC1c1ccccc1	inhibition	BACTEC		12.5 µg/mL	H37Rv	0%
COc1ccc(/C=C2/SC(=S)N(N)C2=O)cc1	MIC	visual reading			H37Rv	16 µg/mL
CC1(C)CCC[C@]2(C)[C@H]3C=C4C=C(O)C(=O)C=C4O[C@@]3(C)CC[C@@H]12	MIC				PZA-R	12.5 µg/mL
CC(=O)NC[C@H]1CN(c2ccc(N3C[C@H]4CC(NC(C)=O)C[C@H]4C3)c(F)c2)C(=O)O1	MIC	broth dilution / resazurin			H37Rv	1 µg/mL
COc1ccc2c(-c3ccccc3)cc(N)nc2n1	EC50				H37Rv	<12.5 µg/mL
Cc1ccc(-c2cc(-c3ccc(Cl)cc3)nc(/N=C3\C(=O)Nc4ccccc43)n2)cc1	EC50	BACTEC			H37Rv	<6.25 µg/mL
CC1(C)OC(=O)C(=Cc2ccc([N+](=O)[O-])s2)C(=O)O1	MIC	resazurin			H37Rv	3.13 µg/mL
COc1ccc(-c2cc(=O)c3c(OC)c(-c4cc(OC)ccc4-c4cc(=O)c5c(OC)cc(OC)cc5o4)c(OC)cc3o2)cc1	EC50					>12.5 µg/mL
CC(=O)NC[C@H]1CN(c2ccc(N3C[C@H]4CC(NCc5ccccc5)C[C@H]4C3)c(F)c2)C(=O)O1	MIC	broth dilution / resazurin			H37Rv	32 µg/mL
COC(=O)CC1(C(=O)OC)Nc2cc(Cl)c(Cl)cc2S(=O)(=O)N1O	MIC bound	BACTEC			H37Rv	>6.25 µg/mL
Cc1cccc2c1N=C(c1ccccc1)C2CN1CCC(NS(C)(=O)=O)C1	MIC					1.5 µM
O=C(Nc1ccccc1-c1ccccc1)c1cnccn1	inhibition	BACTEC		12.5 µg/mL	H37Rv	36%
COc1cc(N/N=C/c2ccccc2O)ncn1	MIC	visual reading			H37Rv	1 µg/mL
O=C(OCCN=C1c2ccccc2CCc2ccccc21)c1ccccc1	MIC bound	BACTEC			H37Rv	>12.5 µg/mL
CCN(CC)CCNC(=O)c1cccc([N+](=O)[O-])c1	MIC				N73	50 µg/mL
O=C1O[C@@H](Cn2ccnn2)CN1c1ccc(N2C[C@H]3CC(NCc4ccccc4)C[C@H]3C2)c(F)c1	MIC	broth dilution / resazurin			H37Rv	32 µg/mL
COc1ccc(-c2noc(C3=CC4(CCN(CC5CCCO5)CC4)c4ccccc43)n2)cc1	MBC	colony count / visual reading			H37Rv	0.8 µM
O=[N+]([O-])c1ccc(O)c(C=Nc2cccc3cccnc23)c1	MIC	visual reading			H37Rv	4 µg/mL
Cc1ccc(-c2cc(-c3ccc(Cl)cc3)nc(/N=C3\C(=O)Nc4ccc(Cl)cc43)n2)cc1	inhibition	BACTEC		6.25 µg/mL	H37Rv	90%
COc1ccc(/C(Cl)=C(\C=O)c2ccc(OC)c(OC)c2)cc1OC	MIC bound	BACTEC			H37Rv	>12.5 µg/mL
O=c1cc(-c2ccc(Oc3c(-c4cccc([N+](=O)[O-])c4)oc4ccccc4c3=O)cc2)oc2ccccc12	EC50					<12.5 µg/mL
O=C(COc1ccccc1)N/N=C1\CCOc2ccccc21	inhibition			12.5 µg/mL	H37Rv	50–64%
O=c1[nH]c(=S)[nH]c(O)c1C=Nc1cc(Cl)ccc1O	MIC	visual reading			Clinical isolate	32 µg/mL
O=c1c2ccccc2nnn1Cc1ccco1	inhibition	BACTEC		12.5 µg/mL	H37Rv	16%
O=C1C[C@@H](c2ccc(O)c(O)c2)Oc2c1c(O)cc(O)c2[C@H]1C(=O)c2c(O)cc(O)cc2O[C@@H]1c1ccc(O)cc1	EC50					>12.5 µg/mL
CSC(=S)Nc1nc2ccc(Cl)cc2s1	inhibition	BACTEC		128 µg/mL	H37Rv	100%
COc1cc(-c2ccccc2)c2ccc(N3CCNCC3)nc2n1	EC50				H37Rv	>12.5 µg/mL

For reference, 10 entries again:

smiles,measure,method,conditions,dose,strain,result
COc1ccc(/C=C2/SC(=S)N(N)C2=O)cc1,MIC,visual reading,,,H37Rv,16 µg/mL
COc1ccc(/C(Cl)=C(\C=O)c2ccc(OC)c(OC)c2)cc1OC,MIC bound,BACTEC,,,H37Rv,>12.5 µg/mL
CC(=O)c1cccc(NC(=O)/C=C/c2ccc([N+](=O)[O-])cc2)c1,MIC,visual reading,,,Clinical isolate,16 µg/mL
CCN(CC)CCNC(=O)c1ccc([N+](=O)[O-])cc1,MIC,,,,N73,50 µg/mL
CC1(C)OC(=O)ON(Cc2ccccc2)C1=O,MIC bound,BACTEC,,,H37Rv,>12.5 µg/mL
COc1ccc2c(-c3ccccc3)cc(N)nc2n1,EC50,,,,H37Rv,<12.5 µg/mL
CC(=O)/C=C(/C)[O-].CC(=O)/C=C(/C)[O-].[O]=[V+2],MIC,resazurin,,,H37Rv (ATCC 27294),>50 µg/mL
Cc1ccc(NC(=O)Oc2cc(C)c(Cl)cc2Br)cc1Cl,MIC bound,BACTEC,,,H37Rv,>12.5 µg/mL
Cc1c(OCC(F)(F)F)ccnc1CSc1nc2ccccc2[nH]1,MIC90,resazurin,14 d,,H37Rv,1.71 µM
O=C1C[C@@H](c2ccc(O)cc2)Oc2cc(O)c(-c3c(O)cc4c(c3O)C(=O)C[C@@H](c3ccc(O)cc3)O4)c(O)c21,EC50,,,,,>12.5 µg/mL

Percent inhibition refers to the dose given; in toxicity tests it is the harm to the cells. Rows are shuffled and stem from different studies. MIC bound: limit read from a one-dose screen. a–b is a range or a potency band. MIC50, MIC90 and the like: level of inhibition, or share of isolates inhibited. An empty or dashed field is not shown.